Anti-infective test results gathered from many reports (values: NIAID ChemDB through PubChem).

Shared fields: whole-cell or culture tests; agent: HIV-1

An empty or dashed field is not shown.

{"structure": "COC(=O)[C@H](C)NP(=O)(OC[C@@H]1C=C[C@H](n2cc(C)c(=O)[nH]c2=O)O1)Oc1ccc(Br)cc1", "method": "p24", "strain or isolate": "G190-6 NRTI resistant", "cells": "PBMC", "changes": "RT-M41L D67N K70R T215Y K219Q", "measure": "EC50", "result": "0.0028 µM"}
{"structure": "C#C[C@]1(CO)O[C@@H](n2cnc3c(N)nc(F)nc32)C[C@@H]1O", "method": "fluorescence", "cells": "MT4-GFP", "measure": "EC50", "result": "0.00106 µM"}
{"structure": "Cc1cn([C@H]2C[C@H](N=[N+]=[N-])[C@@H](CO)O2)c(=O)[nH]c1=O", "method": "XTT", "strain or isolate": "Nevirapine-resistant (RT Y181C)", "cells": "CEM + CEM-SS", "changes": "RT-Y181C", "measure": "EC50", "result": "0.03 µM"}
{"structure": "Cc1ccnc2c1NC(=O)c1cccnc1N2C1CC1", "method": "β-galactosidase", "strain or isolate": "NNRTI-resistant (RT Y181C)", "cells": "MAGI", "changes": "RT-Y181C", "measure": "EC50", "result": "10.3 µM"}
{"structure": "CCCc1cc(=O)oc2c3c(c4c(c12)OC(C)(C)C=C4)O[C@@H](C)[C@H](C)[C@@H]3O", "method": "cytopathic effect / XTT", "strain or isolate": "IIIB", "cells": "MT-2", "measure": "EC50", "result": "0.8 µM"}
{"structure": "Cc1occc1C(=S)Nc1ccc(Cl)c(/C=N/OC(C)(C)C)c1", "method": "cytopathic effect / XTT", "strain or isolate": "UC38-RS (RT-Y181C)", "cells": "CEM + CEM-SS", "changes": "RT-Y181C", "measure": "EC50", "result": "1.3 µM"}
{"structure": "Cc1cc(C#Cc2cccc(N)c2)cc(C)c1Oc1ccnc(NC2CCN(c3cccc(C(N)=O)c3)CC2)n1", "method": "MTT", "strain or isolate": "IIIB", "cells": "MT-4", "measure": "EC50", "result": "0.024 µM"}
{"structure": "Cc1cn([C@H]2C[C@H](N=[N+]=[N-])[C@@H](CO)O2)c(=O)[nH]c1=O", "method": "p24", "strain or isolate": "1617-1 NRTI resistant recombinant", "cells": "PBMC", "changes": "RT-T69K K70G V75I F77L F116Y Q151M M184V", "measure": "EC50", "result": "0.32 µM"}
{"structure": "Cc1cc(C#Cc2ccc(N)cc2)cc(C)c1Oc1ccnc(Nc2ccc(C#N)cc2)n1", "method": "MTT", "strain or isolate": "IIIB", "cells": "MT-4", "changes": "K103N", "measure": "EC50", "result": "0.045 µM"}
{"structure": "CO[P@](=O)(c1cc(C)cc(/C=C/C#N)c1)c1c(C(N)=O)[nH]c2ccc(Cl)cc12", "strain or isolate": "IIIB", "cells": "H9", "measure": "EC50", "result": "0.0005 µM"}
{"structure": "N#CC[C@H](C1CCCC1)n1cc(-c2ncnc3[nH]ccc23)cn1", "method": "p24 / ELISA", "cells": "Primary T lymphocytes", "changes": "A62V V75I F77L F116Y Q151M", "measure": "EC90", "result": "1.5 µM"}
{"structure": "Cc1ccnc2c1NC(=O)c1cccnc1N2C1CC1", "method": "XTT", "strain or isolate": "Dihydrocostatolide-resistant (RT-L100I)", "cells": "CEM + CEM-SS", "changes": "RT-L100I", "measure": "EC50", "result": "0.1 µM"}
{"structure": "CCc1c(CC2CCCCC2)nc(SCC(=O)c2ccccc2)[nH]c1=O", "method": "ELISA", "strain or isolate": "Clinical isolate", "cells": "C8166", "changes": "TC-2", "measure": "EC50", "result": "0.00874 µM"}
{"structure": "CC(C)OC(=O)OCOP(=O)(CO[C@H](C)Cn1cnc2c(N)ncnc21)OCOC(=O)OC(C)C", "method": "p24", "strain or isolate": "G3 R5 subtype G/- (env/gag)", "cells": "PBMC", "changes": "RT-V35T E40D K173T R211K L214F", "measure": "EC50", "result": "0.6 µM"}
{"structure": "C/C=C/CSc1cc(NC(=S)c2ccsc2C)ccc1Cl", "method": "cytopathic effect / XTT", "strain or isolate": "TIBO R82150-resistant (RT A98G V108I)", "cells": "CEM + CEM-SS", "changes": "RT-A98G V108I", "measure": "EC50", "result": "1.2 µM"}
{"structure": "Nc1ccn([C@@H]2CS[C@H](CO)O2)c(=O)n1", "method": "p24 / ELISA", "cells": "Primary T lymphocytes", "changes": "L74V", "measure": "EC50", "result": "0.6 µM"}
{"structure": "O=C1N(Cc2ccc(CO)cc2)[C@H](Cc2ccccc2)[C@H](O)[C@@H](O)[C@@H](Cc2ccccc2)N1Cc1ccc(CO)cc1", "method": "p24", "strain or isolate": "Clinical isolate E", "cells": "PBMC", "measure": "EC50", "result": "0.018 µM"}
{"structure": "CCCc1cc(=O)oc2c3c(c4c(c12)OC(C)(C)C=C4)O[C@H](C)[C@@H](C)[C@@H]3O", "method": "XTT", "strain or isolate": "NL4-3(RT-4XAZT)", "cells": "CEM + CEM-SS", "changes": "RT-D67N K70R T215Y K219Q", "measure": "EC50", "result": "0.2 µM"}
{"structure": "C[C@H](Cn1cnc2c(N)ncnc21)OCP(=O)(O)O", "method": "luciferase", "strain or isolate": "Recombinant", "cells": "HeLa", "changes": "RT-M41L S68N G112S M184V", "measure": "EC50", "result": "0.278 µM"}
{"structure": "C[C@H](Cn1cnc2c(N)ncnc21)OCP(=O)(O)O", "method": "p24", "strain or isolate": "G691-2 AZT-resistant (RT D67N K70R T215Y K219Q)", "cells": "MT-2", "changes": "RT-D67N K70R T215Y K219Q", "measure": "EC50", "result": "0.65 µM"}
{"structure": "Cc1cccc(C)c1Oc1ccnc(Nc2ccc(C#N)cc2)n1", "method": "MTT", "strain or isolate": "IIIB", "cells": "MT-4", "changes": "RES056", "measure": "EC50", "result": ">12.1 µM"}
{"structure": "Cc1cn([C@@H]2O[C@H](CO[Si](C)(C)C(C)(C)C)[C@@]3(OS(=O)(=O)C=C3N)[C@H]2O[Si](C)(C)C(C)(C)C)c(=O)[nH]c1=O", "method": "cytopathic effect / XTT", "strain or isolate": "UC82-R (RT-Y181C)", "cells": "CEM + CEM-SS", "changes": "RT-Y181C", "measure": "EC50", "result": ">10 µM"}
{"structure": "S=C(NCCc1cccs1)Nc1ccc(Br)cn1", "method": "p24", "strain or isolate": "S762-4 Clinical isolate NRTI-resistant", "cells": "PBMC", "changes": "RT-M41L T215Y", "measure": "EC50", "result": "0.04 µM"}
{"structure": "Cc1ccnc2c1NC(=O)c1cccnc1N2C1CC1", "method": "cytopathic effect / XTT", "strain or isolate": "3TC-RS (RT-M184I)", "cells": "CEM + CEM-SS", "changes": "RT-M184I", "measure": "EC50", "result": "0.01 µM"}
{"structure": "Cc1cc(C#Cc2cccc(N)c2)cc(C)c1Oc1ccnc(NC2CCN(Cc3ccc(S(N)(=O)=O)cc3)CC2)n1", "method": "MTT", "strain or isolate": "IIIB", "cells": "MT-4", "changes": "F227L + V106A", "measure": "EC50", "result": "0.03 µM"}
{"structure": "O=C1CN=C(c2ccc[nH]2)c2cc(Cl)ccc2N1", "method": "cytopathic effect / trypan blue", "strain or isolate": "IIIB/LAI", "cells": "MT-2", "measure": "EC50", "result": ">1.6 µM"}
{"structure": "Cn1c2ccccc2c2c1cc(C#N)c(=O)n2-c1ccc([N+](=O)[O-])cc1", "method": "luciferase", "strain or isolate": "NRTI resistant", "cells": "HeLa", "changes": "RT-T69K K70G V75I F77L F116Y Q151M M184V", "measure": "EC50", "result": "0.425 µM"}
{"structure": "Cc1cn([C@H]2C[C@H](N=[N+]=[N-])[C@@H](CO)O2)c(=O)[nH]c1=O", "method": "p24 / ELISA", "strain or isolate": "LAI", "cells": "Primary T lymphocytes", "measure": "EC90", "result": "0.1 µM"}
{"structure": "Cc1cn([C@H]2C[C@H](N=[N+]=[N-])[C@@H](CO)O2)c(=O)[nH]c1=O", "method": "luciferase", "strain or isolate": "Recombinant", "cells": "HeLa", "changes": "RT-M41L S68N G112S M184V", "measure": "EC50", "result": "0.00608 µM"}
{"structure": "O=c1[nH]cnc2c1ncn2[C@H]1CC[C@@H](CO)O1", "method": "p24", "strain or isolate": "RF", "cells": "PBL", "measure": "EC50", "result": "0.33 µM"}
{"structure": "O=C(Nc1cc(S(=O)(=O)O)cc2cc(S(=O)(=O)O)c(N=Nc3ccc(N=Nc4c(S(=O)(=O)O)cc5cc(S(=O)(=O)O)cc(NC(=O)c6cccc(Cl)c6Cl)c5c4O)cc3)c(O)c12)c1ccc(Cl)cc1Cl", "strain or isolate": "SF162", "cells": "PBMC", "measure": "EC50", "result": "0.4 µg/mL"}

Again, the opening 2 rows:

structure	method	strain or isolate	cells	changes	measure	result
COC(=O)[C@H](C)NP(=O)(OC[C@@H]1C=C[C@H](n2cc(C)c(=O)[nH]c2=O)O1)Oc1ccc(Br)cc1	p24	G190-6 NRTI resistant	PBMC	RT-M41L D67N K70R T215Y K219Q	EC50	0.0028 µM
C#C[C@]1(CO)O[C@@H](n2cnc3c(N)nc(F)nc32)C[C@@H]1O	fluorescence	-	MT4-GFP	-	EC50	0.00106 µM

ECn: concentration that inhibits the pathogen or its effect by n%. Rows are shuffled and stem from different studies.